Values of other authors, collected in patent publication US8067231B2 (priority 2005, dated 2011).

Chains of the proteins cited; added tags and fusions are not shown. Lines headed by an entry give the natural chain unless they say otherwise; changes in a name come on top.
UniProt P0DPI0: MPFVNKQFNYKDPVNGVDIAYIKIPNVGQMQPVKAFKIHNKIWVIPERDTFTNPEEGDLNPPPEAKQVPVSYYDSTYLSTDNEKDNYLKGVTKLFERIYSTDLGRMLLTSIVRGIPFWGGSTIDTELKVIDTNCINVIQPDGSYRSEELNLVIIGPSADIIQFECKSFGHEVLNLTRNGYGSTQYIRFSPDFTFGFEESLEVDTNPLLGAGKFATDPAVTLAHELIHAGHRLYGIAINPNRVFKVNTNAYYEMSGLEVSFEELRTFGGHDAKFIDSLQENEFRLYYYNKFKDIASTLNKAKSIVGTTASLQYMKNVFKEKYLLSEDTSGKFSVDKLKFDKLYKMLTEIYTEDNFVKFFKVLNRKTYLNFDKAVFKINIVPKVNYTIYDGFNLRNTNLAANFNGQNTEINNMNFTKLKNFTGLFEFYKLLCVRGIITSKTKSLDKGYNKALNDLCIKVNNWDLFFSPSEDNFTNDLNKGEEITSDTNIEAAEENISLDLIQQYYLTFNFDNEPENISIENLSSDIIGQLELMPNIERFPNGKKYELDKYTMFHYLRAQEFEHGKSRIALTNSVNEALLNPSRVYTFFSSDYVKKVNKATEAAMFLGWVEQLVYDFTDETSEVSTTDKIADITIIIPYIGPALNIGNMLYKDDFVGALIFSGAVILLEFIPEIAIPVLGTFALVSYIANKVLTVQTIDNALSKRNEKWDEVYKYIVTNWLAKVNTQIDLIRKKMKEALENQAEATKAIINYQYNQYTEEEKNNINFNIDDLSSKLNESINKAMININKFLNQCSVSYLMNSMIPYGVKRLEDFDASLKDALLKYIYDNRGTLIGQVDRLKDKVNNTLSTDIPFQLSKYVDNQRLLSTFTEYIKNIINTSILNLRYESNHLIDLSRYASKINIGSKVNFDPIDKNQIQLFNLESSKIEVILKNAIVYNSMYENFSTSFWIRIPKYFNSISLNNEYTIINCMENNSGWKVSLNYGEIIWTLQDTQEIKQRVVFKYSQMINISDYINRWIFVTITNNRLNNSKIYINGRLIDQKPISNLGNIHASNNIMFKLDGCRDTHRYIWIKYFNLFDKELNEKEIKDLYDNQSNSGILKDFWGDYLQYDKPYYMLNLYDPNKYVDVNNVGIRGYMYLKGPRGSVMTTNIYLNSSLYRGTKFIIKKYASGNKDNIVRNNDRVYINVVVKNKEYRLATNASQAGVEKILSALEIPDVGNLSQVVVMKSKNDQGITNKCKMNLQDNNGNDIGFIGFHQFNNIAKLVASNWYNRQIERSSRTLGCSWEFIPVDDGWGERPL

Target: BoNT/A (Clostridium botulinum, UniProt P0DPI0)
Conditions: Initial hydrolysis rates relative to peptide [1-17] (residues 187 to 203 of human SNAP-25); peptide concentrations 1.0 mM; cited from earlier work

| Sequence | Relative Rate |
| --- | --- |
| SNKTRIDEAAQRATKML | 0.06 |
| SNKTRIDEANQRATK | 0.03 |
